Source: paper PMC7106896, “Synthesis and biological evaluation of 2-(4-methylsulfonyl phenyl) indole derivatives: multi-target compounds with dual antimicrobial and anti-inflammatory activities” (BMC Chemistry, 2020)

Assay: In vitro nitric oxide release assay (Griess reagent)

Row | SMILES | Amount of NO released (% mol/mol) ± standardization error (phosphate buffer pH 7.4, 1 h) [% mol/mol] | Amount of NO released (% mol/mol) ± standardization error (phosphate buffer pH 7.4, 2 h) [% mol/mol] | Amount of NO released (% mol/mol) ± standardization error (phosphate buffer pH 7.4, 3 h) [% mol/mol] | Amount of NO released (% mol/mol) ± standardization error (phosphate buffer pH 7.4, 4 h) [% mol/mol] | Amount of NO released (% mol/mol) ± standardization error (phosphate buffer pH 7.4, 5 h) [% mol/mol]
1 | CS(=O)(=O)c1ccc(-c2[nH]c3ccccc3c2C=NO)cc1 [Compound 9a, 2-(4-(Methylsulfonyl)phenyl)-1H-indole-3-carbaldehyde oxime] | 0.027 ± 0.002 | 0.065 ± 0.002 | 0.194 ± 0.007 | 0.165 ± 0.002 | 0.138 ± 0.004
2 | CS(=O)(=O)c1ccc(-c2[nH]c3ccc(F)cc3c2C=NO)cc1 [Compound 9b, 5-Fluoro-2-(4-(methylsulfonyl)phenyl)-1H-indole-3-carbaldehyde oxime] | 0.086 ± 0.001 | 0.147 ± 0.003 | 0.210 ± 0.002 | 0.198 ± 0.003 | 0.218 ± 0.005
3 | Cc1ccc2[nH]c(-c3ccc(S(C)(=O)=O)cc3)c(C=NO)c2c1 [Compound 9c, 5-Methyl-2-(4-(methylsulfonyl)phenyl)-1H-indole-3-carbaldehyde oxime] | 0.061 ± 0.001 | 0.130 ± 0.002 | 0.187 ± 0.001 | 0.198 ± 0.003 | 0.225 ± 0.002
